Reference: patent US20240109955A1 (published 2024)

Key:
Assay in all cases: cell-based or functional assay
[1] = molecular target: SARS-CoV-2 spike (S) protein, Omicron sublineage BA.4/5 (SARS-CoV-2)
[2] = molecular target: SARS-CoV-2 spike (S) protein, Omicron sublineage BQ.1 (SARS-CoV-2)
[3] = molecular target: SARS-CoV-2 spike (S) protein, Omicron sublineage BQ.1.1 (SARS-CoV-2)
[4] = molecular target: SARS-CoV-2 spike (S) protein, Omicron sublineage BA.2.75.2 (SARS-CoV-2)
[5] = molecular target: SARS-CoV-2 spike (S) protein, Omicron sublineage XBB (SARS-CoV-2)

B1: MX1063 (trispecific antibody)
chain 1: EIVMTQSPAILSVSPGERATLSCRASQSVAINLAWYQQKPGQAPRLLIYAASSRATGIPGRFSGSGSETNFTLTISSLQSGDFAVYYCQQYITWPPSYTFGQGTKLEIKGGSSGQTVVTQEPSFSVSPGGTVTLTCGLSSGSVSTAYFPSWYQQTPGQAPRTLIYGTNTRSSGVPDRFSGSILGNKAALTITGAQADDESDYYCVLYMGRGIVVFGGGTKLTVLGGGGSGGSGSGGGGSASGSGQVQLVESGGGVVQPGRSLRLSCAASGFTLSSYGMHWVRQAPGKGLEWVAVISYDGSNKYYVDSVKGRFTISRDNSKNTLYLQMNSLRAEDTAVYYCRWAYWELLPDYYYGMDVWGQGTTVTVSSGGSSGEVQLVESGGALIQPGGSLRLSCAASGIIVSANYMSWVRQAPGKGLEWVSVIYSGGSTFYADSVKGRFTISRDNSKNTLYLEMNSLRAEDTAVYYCARDAPILGVSDWGQGTLVTVSSASGGSGDKTHTCPPCPAPELLGGPSVFLFPPKPKDTLMISRTPEVTCVVVDVSHEDPEVKFNWYVDGVEVHNAKTKPREEQYNSYVVSVLTVLHQDWLNGKEYKCKVSNKALPAPIEKTISKAKGQPREPQVYTLPPCRDELTKNQVSLWCLVKGFYPSDIAVEWESNGQPENNYKTTPPVLDSDGSFFKKLTVDKSRWQQGNVFSCSVLHEALHSHYTQKSLSLSPG
chain 2: EIVMTQSPAILSVSPGERATLSCRASQSVAINLAWYQQKPGQAPRLLIYAASSRATGIPGRFSGSGSETNFTLTISSLQSGDFAVYYCQQYITWPPSYTFGQGTKLEIKGGSSGDTVMTQSPLSLPVTPGEPASISCRSSQSLLNSNGYNYLDWYVQKPGQSPQLLIYLGSNRASGVPDRFSGSGSGTDFTLKISRVEAEDVGVYYCMQPLQTPLFTFGPGTKVEIKGGGGSGGSGSGGGGSASGSGQVTLRESGPALVKPTQTLTLTCTFSGFSLSTRGVCVSWIRQPPGKALEWLAFIDWDDDKYYNTSLKTRLTISKDTSKNQVVLTMTNVHPVDTATYYCARISSHHGSSWCTTFDYWGQGALVTVSAGGSSGEVQLVESGGALIQPGGSLRLSCAASGIIVSANYMSWVRQAPGKGLEWVSVIYSGGSTFYADSVKGRFTISRDNSKNTLYLEMNSLRAEDTAVYYCARDAPILGVSDWGQGTLVTVSSASGGSGDKTHTCPPCPAPELLGGPSVFLFPPKPKDTLMISRTPEVTCVVVDVSHEDPEVKFNWYVDGVEVHNAKTKPREEQYNSYVVSVLTVLHQDWLNGKEYKCKVSNKALPAPIEKTISKAKGQPREPQVCTLPPSRDELTKNQVSLSCAVKGFYPSDIAVEWESNGQPENNYKTTPPVLDSDGSFFLVSKLTVDKSRWQQGNVFSCSVLHEALHSHYTQKSLSLSPG
IC50, pseudovirus neutralization [1]: 0.00502 µg/mL
IC80, pseudovirus neutralization [1]: 0.0267 µg/mL
IC50, pseudovirus neutralization [2]: 0.0143 µg/mL
IC80, pseudovirus neutralization [2]: 0.0561 µg/mL
IC50, pseudovirus neutralization [3]: 0.0228 µg/mL
IC80, pseudovirus neutralization [3]: 0.0551 µg/mL
IC50, pseudovirus neutralization [4]: 0.00841 µg/mL
IC80, pseudovirus neutralization [4]: 0.021 µg/mL
IC50, pseudovirus neutralization [5]: 0.00662 µg/mL
IC80, pseudovirus neutralization [5]: 0.0181 µg/mL

B2: MX1068 (trispecific antibody)
chain 1: B1 chain 1
chain 2: DTVMTQSPLSLPVTPGEPASISCRSSQSLLNSNGYNYLDWYVQKPGQSPQLLIYLGSNRASGVPDRFSGSGSGTDFTLKISRVEAEDVGVYYCMQPLQTPLFTFGPGTKVEIKGGSSGQTVVTQEPSFSVSPGGTVTLTCGLSSGSVSTAYFPSWYQQTPGQAPRTLIYGTNTRSSGVPDRFSGSILGNKAALTITGAQADDESDYYCVLYMGRGIVVFGGGTKLTVLGGGGSGGSGSGGGGSASGSGQVQLVESGGGVVQPGRSLRLSCAASGFTLSSYGMHWVRQAPGKGLEWVAVISYDGSNKYYVDSVKGRFTISRDNSKNTLYLQMNSLRAEDTAVYYCRWAYWELLPDYYYGMDVWGQGTTVTVSSGGSSGQVTLRESGPALVKPTQTLTLTCTFSGFSLSTRGVCVSWIRQPPGKALEWLAFIDWDDDKYYNTSLKTRLTISKDTSKNQVVLTMTNVHPVDTATYYCARISSHHGSSWCTTFDYWGQGALVTVSAASGGSGDKTHTCPPCPAPELLGGPSVFLFPPKPKDTLMISRTPEVTCVVVDVSHEDPEVKFNWYVDGVEVHNAKTKPREEQYNSYVVSVLTVLHQDWLNGKEYKCKVSNKALPAPIEKTISKAKGQPREPQVCTLPPSRDELTKNQVSLSCAVKGFYPSDIAVEWESNGQPENNYKTTPPVLDSDGSFFLVSKLTVDKSRWQQGNVFSCSVLHEALHSHYTQKSLSLSPG
IC50, pseudovirus neutralization [1]: 0.0113 µg/mL
IC80, pseudovirus neutralization [1]: 0.0295 µg/mL
IC50, pseudovirus neutralization [2]: 0.0379 µg/mL
IC80, pseudovirus neutralization [2]: 0.117 µg/mL
IC50, pseudovirus neutralization [3]: 0.064 µg/mL
IC80, pseudovirus neutralization [3]: 0.226 µg/mL
IC50, pseudovirus neutralization [4]: 0.0076 µg/mL
IC80, pseudovirus neutralization [4]: 0.025 µg/mL
IC50, pseudovirus neutralization [5]: 0.0152 µg/mL
IC80, pseudovirus neutralization [5]: 0.0469 µg/mL

B3: MX1067 (trispecific antibody)
chain 1: B1 chain 1
chain 2: QTVVTQEPSFSVSPGGTVTLTCGLSSGSVSTAYFPSWYQQTPGQAPRTLIYGTNTRSSGVPDRFSGSILGNKAALTITGAQADDESDYYCVLYMGRGIVVFGGGTKLTVLGGSSGDTVMTQSPLSLPVTPGEPASISCRSSQSLLNSNGYNYLDWYVQKPGQSPQLLIYLGSNRASGVPDRFSGSGSGTDFTLKISRVEAEDVGVYYCMQPLQTPLFTFGPGTKVEIKGGGGSGGSGSGGGGSASGSGQVTLRESGPALVKPTQTLTLTCTFSGFSLSTRGVCVSWIRQPPGKALEWLAFIDWDDDKYYNTSLKTRLTISKDTSKNQVVLTMTNVHPVDTATYYCARISSHHGSSWCTTFDYWGQGALVTVSAGGSSGQVQLVESGGGVVQPGRSLRLSCAASGFTLSSYGMHWVRQAPGKGLEWVAVISYDGSNKYYVDSVKGRFTISRDNSKNTLYLQMNSLRAEDTAVYYCRWAYWELLPDYYYGMDVWGQGTTVTVSSASGGSGDKTHTCPPCPAPELLGGPSVFLFPPKPKDTLMISRTPEVTCVVVDVSHEDPEVKFNWYVDGVEVHNAKTKPREEQYNSYVVSVLTVLHQDWLNGKEYKCKVSNKALPAPIEKTISKAKGQPREPQVCTLPPSRDELTKNQVSLSCAVKGFYPSDIAVEWESNGQPENNYKTTPPVLDSDGSFFLVSKLTVDKSRWQQGNVFSCSVLHEALHSHYTQKSLSLSPG
IC50, pseudovirus neutralization [1]: 0.0158 µg/mL
IC80, pseudovirus neutralization [1]: 0.0531 µg/mL
IC50, pseudovirus neutralization [2]: 0.0645 µg/mL
IC80, pseudovirus neutralization [2]: 0.0732 µg/mL
IC50, pseudovirus neutralization [3]: 0.036 µg/mL
IC80, pseudovirus neutralization [3]: 0.0796 µg/mL
IC50, pseudovirus neutralization [4]: 0.00434 µg/mL
IC80, pseudovirus neutralization [4]: 0.0107 µg/mL
IC50, pseudovirus neutralization [5]: 0.0263 µg/mL
IC80, pseudovirus neutralization [5]: 0.0741 µg/mL

B4: MX1064 (trispecific antibody)
chain 1: B1 chain 1
chain 2: DTVMTQSPLSLPVTPGEPASISCRSSQSLLNSNGYNYLDWYVQKPGQSPQLLIYLGSNRASGVPDRFSGSGSGTDFTLKISRVEAEDVGVYYCMQPLQTPLFTFGPGTKVEIKGGSSGEIVMTQSPAILSVSPGERATLSCRASQSVAINLAWYQQKPGQAPRLLIYAASSRATGIPGRFSGSGSETNFTLTISSLQSGDFAVYYCQQYITWPPSYTFGQGTKLEIKGGGGSGGSGSGGGGSASGSGEVQLVESGGALIQPGGSLRLSCAASGIIVSANYMSWVRQAPGKGLEWVSVIYSGGSTFYADSVKGRFTISRDNSKNTLYLEMNSLRAEDTAVYYCARDAPILGVSDWGQGTLVTVSSGGSSGQVTLRESGPALVKPTQTLTLTCTFSGFSLSTRGVCVSWIRQPPGKALEWLAFIDWDDDKYYNTSLKTRLTISKDTSKNQVVLTMTNVHPVDTATYYCARISSHHGSSWCTTFDYWGQGALVTVSAASGGSGDKTHTCPPCPAPELLGGPSVFLFPPKPKDTLMISRTPEVTCVVVDVSHEDPEVKFNWYVDGVEVHNAKTKPREEQYNSYVVSVLTVLHQDWLNGKEYKCKVSNKALPAPIEKTISKAKGQPREPQVCTLPPSRDELTKNQVSLSCAVKGFYPSDIAVEWESNGQPENNYKTTPPVLDSDGSFFLVSKLTVDKSRWQQGNVFSCSVLHEALHSHYTQKSLSLSPG
IC50, pseudovirus neutralization [1]: 0.00574 µg/mL
IC80, pseudovirus neutralization [1]: 0.0178 µg/mL
IC50, pseudovirus neutralization [2]: 0.0156 µg/mL
IC80, pseudovirus neutralization [2]: 0.0429 µg/mL
IC50, pseudovirus neutralization [3]: 0.013 µg/mL
IC80, pseudovirus neutralization [3]: 0.0326 µg/mL
IC50, pseudovirus neutralization [4]: 0.0144 µg/mL
IC80, pseudovirus neutralization [4]: 0.0351 µg/mL
IC50, pseudovirus neutralization [5]: 0.00612 µg/mL
IC80, pseudovirus neutralization [5]: 0.0247 µg/mL
